Pooled drug test results. Numbers come from NIAID ChemDB, via PubChem.

Shared fields: toxicity to cultured cells; cell line: MT-4; read-out: CC50

CCn is the concentration with n% toxicity to the cells. Rows are shuffled and stem from different studies. An empty or dashed field is not shown.

smiles	method	result
COc1ncnc(NS(=O)(=O)c2ccc(N=C3C(=O)N(CN4CCCC4)c4ccccc43)cc2)c1OC		2.1 µg/mL
Cc1cn([C@H]2C=C[C@@H](CO)O2)c(=O)n(C)c1=O		359 µM
Cc1c(N)nc(Nc2ccc(C#N)cc2)nc1Cc1c(F)cccc1F	MTT	45.9 µM
COc1ncnc(NS(=O)(=O)c2ccc(N=C3C(=O)N(CN4CCOCC4)c4ccccc43)cc2)c1OC		<2.1 µg/mL
CCc1c(Cc2ccccc2)nc(SCC2OCCO2)[nH]c1=O		<100 µM
Cc1cn([C@@H]2OC(O[Si](C)(C)C(C)(C)C)C3(OS(=O)(=O)C=C3NCCC(=O)OCc3ccccc3)C2O[Si](C)(C)C(C)(C)C)c(=O)n(C)c1=O		>250 µM
CC(C)c1nc(CN(C)C(=O)N[C@H](C(=O)N[C@@H](Cc2ccccc2)[C@H](O)CN2CCN(Cc3cncs3)C[C@H]2C(=O)NC(C)(C)C)C(C)C)cs1		>100 µM
C=CCn1c(=O)c(C)cn([C@H]2C[C@H](N=[N+]=[N-])[C@@H](CO)O2)c1=O		214 µM
CCc1c(Cc2ccccc2)nc2n(c1=O)C(OCCO)CS2		>100 µM
CCCCn1c(=O)c(C)cn([C@H]2C[C@H](N=[N+]=[N-])[C@@H](CO)O2)c1=O		330 µM
CCOCn1c(C(=O)C=C(C)C)c(CC)c(=O)[nH]c1=O	MTT	>100 µM
CC(C)[C@@H](NC(=O)N(C)Cc1cncs1)C(=O)N[C@@H](Cc1ccccc1)[C@H](O)CN1CCN(Cc2ccccc2)C[C@H]1C(=O)NC(C)(C)C		56 µM
Cc1cn([C@H]2C[C@H](N=[N+]=[N-])[C@@H](CO)O2)c(=O)n(CC2CO2)c1=O		359 µM
Cc1c(C(C)c2c(F)cccc2F)nc(Nc2ccc(C#N)cc2)[nH]c1=O	MTT	1.064 µM
CCc1c(Cc2cc(C)cc(C)c2)nc2n(c1=O)C(OC)CS2		<100 µM
Nc1ccn([C@@H]2C[C@H](F)[C@H](CO)O2)c(=O)n1		>100 µM
Clc1ccc2nnc3c(Br)cnn3c2c1		>200 µM
COc1ccc(CCN2C(=O)/C(=C\c3cccc(Br)c3)N(CCc3ccc(OC)c(OC)c3)C2=S)cc1OC	MTT	108 µg/mL
O=C(OC1OC2COC(=O)c3cc(O)c(O)c(O)c3-c3c(cc(O)c(O)c3O)C(=O)OC2C(OC(=O)c2cc(O)c(O)c(O)c2)C1OC(=O)c1cc(O)c(O)c(O)c1)c1cc(O)c(O)c(Oc2c(C(=O)OC3OC4COC(=O)c5cc(O)c(O)c(O)c5-c5c(cc(O)c(O)c5O)C(=O)OC4C(OC(=O)c4cc(O)c(O)c(O)c4)C3OC(=O)c3cc(O)c(O)c(O)c3)cc(O)c(O)c2O)c1		37.7 µg/mL
N#Cc1ccc(Nc2nc(Cc3c(F)cccc3F)cc(=O)[nH]2)cc1	MTT	>25 µM
COc1ccc(CCN2C(=O)/C(=C\c3ccccc3)N(CCc3ccc(OC)c(OC)c3)C2=S)cc1OC	MTT	62.95 µg/mL
CCOCn1c(C(O)C=C(C)C)c(CC)c(=O)[nH]c1=O	MTT	100 µM
COc1ncnc(NS(=O)(=O)c2ccc(N=C3C(=O)N(CN4CCCCC4)c4ccc(C)cc43)cc2)c1OC		10.7 µg/mL
O=C1C=C2C(=O)O[C@H]3[C@@H]4OC(=O)c5cc(O)c(O)c(O)c5-c5c(cc(Oc6c(C(=O)O[C@H]7[C@H](OC(=O)c8cc(O)c(O)c(O)c8)O[C@H](COC(=O)c8cc(O)c(O)c(O)c8)[C@@H](OC(=O)c8cc(O)c(O)c(O)c8)[C@@H]7OC(=O)c7cc(O)c(O)c(O)c7)cc(O)c(O)c6O)c(O)c5O)C(=O)OC[C@H]3O[C@@H](OC(=O)c3cc(O)c(O)c(O)c3)[C@@H]4OC(=O)c3cc(O)c(O)c4c3[C@H]2[C@@](O)(O4)C1=O		28.6 µg/mL
CC(c1cc(=O)[nH]c(Nc2ccc(C#N)cc2)n1)c1c(F)cccc1F	MTT	>2.838 µM
Cc1ccc(-c2cc(-c3ccc(Cl)cc3)nc(/N=C3\C(=O)N(CN(C)C)c4ccc(Cl)cc43)n2)cc1	MTT	6.8 µM
c1ccc2c(c1)nnc1ccnn12		>200 µM
O=C(NCc1ccc(F)cc1)c1nc(N2CCCCS2(=O)=O)c2cccnc2c1O		5 µM
COc1ncnc(NS(=O)(=O)c2ccc(N=C3C(=O)N(CN(C)C)c4ccccc43)cc2)c1OC		2.5 µg/mL
CCCCCCCCCCCCOC(=O)c1cc(O)c(O)c(O)c1		1.3 µg/mL
CCc1nc(NCN2C(=O)C(=Nc3ccc(S(=O)(=O)Nc4ncnc(OC)c4OC)cc3)c3ccccc32)nc(N)c1-c1ccc(Cl)cc1		2.4 µg/mL
CC(=O)Oc1ccc(/C=C/C(=O)Nc2ccc(S(=O)(=O)Nc3cc(C)cc(C)c3)cc2)cc1OC(C)=O		13 µM
Cc1ccc(-c2cc(-c3ccc(Cl)cc3)nc(/N=C3\C(=O)Nc4ccc(Cl)cc43)n2)cc1	MTT	8.2 µM
CC(c1ccnc(Nc2ccc(C#N)cc2)n1)c1c(F)cccc1F	MTT	37.5 µM
CCOC(=O)c1cnn2c1nnc1cc([N+](=O)[O-])ccc12		12.7 µM
O=C(/C=C/c1ccc(O)c(O)c1)Nc1ccc(S(=O)(=O)Nc2ccc(F)c(Cl)c2)cc1		14 µM
CC(C)[C@H](NC(=O)OCc1cncs1)C(=O)N[C@@H](Cc1ccccc1)[C@H](O)CN1CCN(Cc2ccccc2)C[C@H]1C(=O)NC(C)(C)C		53 µM
COc1ccc(/C=C2\C(=O)N(CCc3ccc(OC)c(OC)c3)C(=S)N2CCc2ccc(OC)c(OC)c2)cc1	MTT	78.75 µg/mL
Cc1cn([C@@H]2OC3COC4(O)CS(=O)(=O)OC34C2O)c(=O)[nH]c1=O		>100 µM
O=CC(OC(=O)c1cc(O)c(O)c(O)c1)C(OC(=O)c1cc(O)c(O)c(O)c1)C1OC(=O)c2cc(Oc3c(C(=O)OC4OC5COC(=O)c6cc(O)c(O)c(O)c6-c6c(cc(O)c(O)c6O)C(=O)OC5C(OC(=O)c5cc(O)c(O)c(O)c5)C4OC(=O)c4cc(O)c(O)c(O)c4)cc(O)c(O)c3O)c(O)c(O)c2-c2c(cc(O)c(O)c2O)C(=O)OCC1O		30.2 µg/mL
COc1ccc(CCN2C(=O)/C(=C\c3ccc(F)cc3)N(CCc3ccc(OC)c(OC)c3)C2=S)cc1OC	MTT	18.5 µg/mL
O=C(OC1OC2COC(=O)c3cc(O)c(O)c(O)c3-c3c(cc(O)c(O)c3O)C(=O)OC2C(OC(=O)c2cc(O)c(O)c(O)c2)C1OC(=O)c1cc(O)c(O)c(O)c1)c1cc(O)c(O)c(Oc2c(C(=O)OC3OC4COC(=O)c5cc(O)c(O)c(O)c5-c5c(cc(O)c(O)c5O)C(=O)OC4C4OC(=O)c5cc(O)c(O)c(O)c5-c5c(cc(O)c(O)c5O)C(=O)OC34)cc(O)c(O)c2O)c1		19.8 µg/mL
N#Cc1ccc(Nc2nc(N)cc(Cc3c(F)cccc3F)n2)cc1	MTT	44.6 µM
CC(C)c1nc(COC(=O)N[C@H](C(=O)N[C@@H](Cc2ccccc2)[C@H](O)CN2CCN(Cc3cncs3)C[C@H]2C(=O)NC(C)(C)C)C(C)C)cs1		57 µM
COc1ncnc(NS(=O)(=O)c2ccc(N=C3C(=O)N(CN4CCCC4)c4ccc(C)cc43)cc2)c1OC		21.1 µg/mL
COc1ccc(CCN2C(=O)/C(=C\c3ccccc3-c3ccco3)N(CCc3ccc(OC)c(OC)c3)C2=S)cc1OC	MTT	17.35 µg/mL
CC(C)c1c(Cc2ccccc2)nc2n(c1=O)C(OCCO)CS2		<100 µM
Cc1cn([C@H]2C[C@H](N=[N+]=[N-])[C@@H](CO)O2)c(=O)n(C)c1=O		>500 µM
CCCCOC(=O)c1cc(O)c(O)c(O)c1		14.4 µg/mL
Cc1ccc(-c2cc(-c3ccc(Cl)cc3)nc(/N=C3\C(=O)Nc4ccc(Br)cc43)n2)cc1	MTT	10.4 µM
O=C(/C=C/c1ccc(O)c(O)c1)Nc1ccc(S(=O)(=O)Nc2cccc(Cl)c2F)cc1		21 µM
Cc1ccc(-c2cc(-c3ccc(Cl)cc3)nc(/N=C3\C(=O)N(CN(C)C)c4ccccc43)n2)cc1	MTT	10.1 µM
N#Cc1ccc(Nc2nc(Cl)cc(Cc3c(F)cccc3F)n2)cc1	MTT	>2.803 µM
O=C(/C=C/c1ccc(O)c(O)c1)Nc1ccc(S(=O)(=O)Nc2ccc(F)c(F)c2)cc1		22 µM
CC(C)c1nc(COC(=O)N[C@H](C(=O)N[C@@H](Cc2ccccc2)[C@H](O)CN2CCN(Cc3ccccc3)C[C@H]2C(=O)NC(C)(C)C)C(C)C)cs1		45 µM
CCc1c(Cc2cccc3ccccc23)nc(SCC2OCCO2)[nH]c1=O		<100 µM
CCN1C[C@H](C)n2c(c(O)c3c(=O)n(Cc4ccc(F)c(Cl)c4)nc(N4CCN(C)S4(=O)=O)c32)C1=O		>8 µM
O=[N+]([O-])c1cnn2c1nnc1cc(Cl)ccc12		1.4 µM
Cc1cc(C)cc(NS(=O)(=O)c2ccc(NC(=O)/C=C/c3ccc(O)c(O)c3)cc2)c1		12 µM
CC(c1cc(N)nc(Nc2ccc(C#N)cc2)n1)c1c(F)cccc1F	MTT	46.1 µM

5 of the rows above, restated:

| smiles | method | result |
|---|---|---|
| CC(C)[C@@H](NC(=O)N(C)Cc1cncs1)C(=O)N[C@@H](Cc1ccccc1)[C@H](O)CN1CCN(Cc2ccccc2)C[C@H]1C(=O)NC(C)(C)C |  | 56 µM |
| COc1ccc(CCN2C(=O)/C(=C\c3ccccc3)N(CCc3ccc(OC)c(OC)c3)C2=S)cc1OC | MTT | 62.95 µg/mL |
| CC(c1cc(N)nc(Nc2ccc(C#N)cc2)n1)c1c(F)cccc1F | MTT | 46.1 µM |
| CC(=O)Oc1ccc(/C=C/C(=O)Nc2ccc(S(=O)(=O)Nc3cc(C)cc(C)c3)cc2)cc1OC(C)=O |  | 13 µM |
| N#Cc1ccc(Nc2nc(Cc3c(F)cccc3F)cc(=O)[nH]2)cc1 | MTT | >25 µM |